Pooled drug test results. Numbers come from NIAID ChemDB, via PubChem.

Shared fields: enzyme or target tests; agent: Pneumocystis carinii; target: Dihydrofolate reductase; endpoint: IC50

ICn: concentration for n% inhibition.

| compound | result |
|---|---|
| Nc1nc(N)c2cc(COC(=O)c3c4ccccc4cc4ccccc34)ccc2n1 | 0.49 µM |
| Nc1nc(N)c2c(n1)-c1ccccc1C2 | >205 µM |
| Nc1nc(N)c2cc(COC(=O)C(c3ccccc3)c3ccccc3)ccc2n1 | 5.8 µM |
| COc1cc(CCc2c[nH]c3nc(N)nc(N)c23)cc(OC)c1OC | 0.77 µM |
| Nc1nc(N)c2cc(COC(=O)c3cccc4ccccc34)ccc2n1 | 0.11 µM |
| Nc1nc(N)c2c(n1)CC1CC(=O)CC2C1 | 260 µM |
| COc1ccc2c(c1)-c1nc3nc(N)nc(N)c3cc1CC2 | 38.4 µM |
| Nc1nc(N)c2cc(COC(=O)c3ccccc3-c3ccccc3)ccc2n1 | 0.69 µM |
| COc1ccc(OC)c(C(C)Cc2c[nH]c3nc(N)nc(N)c23)c1 | 8.06 µM |
| COc1ccc2c(c1)CCc1cc3c(N)nc(N)nc3nc1-2 | 6.7 µM |
| Nc1nc(N)c2cc(COC(=O)c3ccc(-c4ccccc4)cc3)ccc2n1 | 11 µM |
| Nc1nc(N)c2cc3c(nc2n1)CCc1ccccc1-3 | 0.65 µM |
| CC(Cc1c[nH]c2nc(N)nc(N)c12)c1ccc2c(c1)Cc1ccccc1-2 | 2.09 µM |
| COc1ccc2ccc3cc4c(N)nc(N)nc4nc3c2c1 | >1.85 µM |
| CC1(C)CN2CCC1c1nc(N)nc(N)c12 | >46 µM |

The last 2 rows once more:

compound,result
COc1ccc2ccc3cc4c(N)nc(N)nc4nc3c2c1,>1.85 µM
CC1(C)CN2CCC1c1nc(N)nc(N)c12,>46 µM

Rows are shuffled and stem from different studies.